Measured values reported in patent publication US10039758B2 (priority 2014, dated 2018).

System: PA
Assay: Biochemical assay of PA binding and internalization (immunoblot)
Type: cell-based, mouse
Settings: RAW264.7, 1 ug/mL PA at 37° C. 1 hour, compared to PA only (FIG. 15)

Question: Which “abundance of SDS-resistant PA-oligomers” value does the source give for `CCN(CC)Cc1cc(Nc2ccnc3cc(Cl)ccc23)ccc1O` [AQ, Amodiaquine] here?
Answer: Its value is “higher, rather than lower, abundance of SDS-resistant PA-oligomers”.
